Pooled drug test results. Numbers come from NIAID ChemDB, via PubChem.

Shared fields: growth or infection tests; agent: Mycobacterium smegmatis

Lines come from different laboratories, so protocols vary. ECn is the concentration giving n% inhibition of infection, replication or growth. An empty or dashed field is not shown. Two numbers with a dash give a range or band. A number after MIC or MFC names an inhibition level or a share of isolates.

| SMILES | method | strain or isolate | mutations | read-out | value |
|---|---|---|---|---|---|
| O=C(Nc1ccccc1CN1CCOCC1)c1ccc(Cl)cc1 | - | 103599 | - | MIC | >16 µg/mL |
| CC1CN(c2cc3c(cc2[N+](=O)[O-])c(=O)c(C(=O)O)c2n3CS2)CC(C)O1 | agar | ATCC 14468 MC2 | - | MIC | 63.87 µM |
| Cc1ccc(-c2nc(C)c(-c3cn4cc(Cl)ccc4n3)s2)cc1 | broth dilution / absorbance | mc2155 | - | MIC | >50 µg/mL |
| C[C@H](NCCN[C@H](C)c1ccccc1)c1ccccc1 | - | ATCC 607 | - | EC50 | <250 µg/mL |
| O=C(O)c1c2n(c3cc(N4CCC(N5CCCCC5)CC4)c(F)cc3c1=O)CS2 | agar | ATCC 14468 MC2 | - | MIC | 120 µM |
| CN1CCN(Cc2ccccc2NC(=O)c2ccc(-c3ccccc3)cc2)CC1 | - | 103599 | - | MIC | >16 µg/mL |
| Cc1[nH]c(-c2ccc(-c3ccc(C(F)(F)F)cc3)o2)nc1-c1ccc(Cl)cc1 | broth dilution / turbidity | - | - | MIC100 | 3–10 µg/mL |
| CN(C)C(=O)CC(CSc1ccccc1)Nc1c(C(=O)N/N=C/c2cccnc2)cnc2cc(F)ccc12 | resazurin | ATCC 19420 | - | MIC | >100 µg/mL |
| Cc1[nH]c(-c2ccc(-c3ccc(Cl)cc3)s2)nc1-c1ccccc1 | broth dilution / turbidity | - | - | MIC100 | 11–20 µg/mL |
| CCCCCCCCCCCCC(CCCCCCCCCCCC)OC(=O)NC(CCC(=O)O)(CCC(=O)O)CCC(=O)O | - | mc155 | - | MIC | 71 µg/mL |
| Clc1ccc(C(Cn2ccnc2)NCc2cccc3ccccc23)c(Cl)c1 | - | CIP 103599 | - | MIC | >16 µg/mL |
| CCCCCCCCCCCCCCCCCC#CC(=O)O | - | mc22389 | - | MIC99 | >200 µM |
| C=C/C(C)=C/[C@@]1(C)SC(=O)C(C)=C1O | - | mc2155 | - | EC50 | <75 µg/mL |
| CCCCCCCCC#CCCCCCCC#CC(=O)O | - | mc2651 | - | MIC99 | >200 µM |
| CC(C)NCCNC(C)C | - | ATCC 607 | - | EC50 | <60 µg/mL |
| COc1c(N2CCSCC2)c(F)c([N+](=O)[O-])c2c(=O)c(C(=O)O)cn(C3CC3)c12 | agar | ATCC 14468 | - | MIC | 3.68 µM |
| O=c1sn(-c2ccc(F)c(Cl)c2)c(=O)n1C1Cc2ccccc2C1 | broth dilution | mc2155 | - | MIC | 0.39 µg/mL |
| C#CCCCCCCCCCCCCC#CC(=O)O | - | mc2155 | - | MIC99 | 76.3 µM |
| COc1c(N2CC(C)OC(C)C2)c(F)cc2c(=O)c(C(=O)O)cn(C3CC3)c12 | agar | ATCC 14468 | - | MIC | 16.01 µM |
| Clc1ccc(C(Cn2ccnc2)NCc2ccc(-c3ccccc3)cc2)c(Cl)c1 | - | CIP 103599 | - | MIC | >16 µg/mL |
| O=C(Nc1ccc(Cn2ccnc2)cc1)c1ccc(Cl)cc1 | - | 103599 | - | MIC | >16 µg/mL |
| CCC(C)(C)NCCNC(C)C | - | ATCC 607 | - | EC50 | >250 µg/mL |
| CC[C@H](C)[C@@H](NC(=O)[C@@H](CCC(=O)O)NC(=O)[C@H](Cc1cnc[nH]1)NC(=O)[C@H](CC(C)C)NC(=O)[C@H](N)Cc1ccccc1)C(=O)N[C@H]1CCCCNC1=O | - | - | - | MIC | 0.78 µg/mL |
| Cc1ccc(C2=NNC(c3cn(-c4ccc(Cl)cc4)nc3-c3cccs3)C2)o1 | resazurin | - | - | MIC | 125 µg/mL |
| Cc1ccc(-c2nc(C)c(-c3cn4ccccc4n3)s2)cc1 | broth dilution / absorbance | mc2155 | - | MIC | >50 µg/mL |
| CCCCCCCCCCCCCC#CC(=O)OCCO | - | mc2155 | - | MIC99 | 6.8 µM |
| O=C(NCCCOCCOCCOCCNC(=O)c1ccc2c(c1)B(O)OC2)c1ccc2c(c1)B(O)OC2 | visual reading / absorbance | mc2155 | - | MIC | 390–780 µM |
| COc1c(N2CCC(N3CCCCC3)CC2)c(F)c([N+](=O)[O-])c2c(=O)c(C(=O)O)cn(C3CC3)c12 | agar | ATCC 14468 | - | MIC | 12.79 µM |
| CCCCCCCCCCCCCC#CC(=O)N(N)C(=O)c1ccncc1 | - | mc2155 | - | MIC99 | >200 µM |
| Cc1nc(-c2ccccc2)sc1-c1cn2ccccc2n1 | broth dilution / absorbance | mc2155 | - | MIC | >50 µg/mL |
| CSc1ccccc1/C=N/NC(=O)c1cnc2cc(F)ccc2c1NC(CSc1ccccc1)CC(=O)N(C)C | resazurin | ATCC 19420 | - | MIC | >100 µg/mL |
| O=C(/C=C/c1ccccc1)Nc1ccccc1Cn1ccnc1 | - | 103599 | - | MIC | 8 µg/mL |
| Cc1[nH]c(-c2ccc(-c3cccc(OC(F)(F)F)c3)o2)nc1-c1ccc(F)cc1 | broth dilution / turbidity | - | - | MIC100 | 11–20 µg/mL |
| O=c1sn(-c2ccc([N+](=O)[O-])cc2Cl)c(=O)n1CC1CC1 | broth dilution | mc2155 | - | MIC | 50 µg/mL |
| CN(C)C(=O)CC(CSc1ccccc1)Nc1c(C(=O)N/N=C/c2ccccc2F)cnc2cc(F)ccc12 | resazurin | ATCC 19420 | - | MIC | 10 µg/mL |
| Cc1[nH]c(-c2ccc(-c3cccc(OC(F)(F)F)c3)o2)nc1-c1ccccc1 | broth dilution / turbidity | - | - | MIC100 | 11–20 µg/mL |
| CCCCCCCCO[C@@H]1O[C@H]([C@H](O)CO)C(O)C1NC(C)=O | absorbance | mc2155 | - | MIC | >1.5 µM |
| COc1c(N2CCN(C(=O)c3ccco3)CC2)c(F)c([N+](=O)[O-])c2c(=O)c(C(=O)O)cn(C3CC3)c12 | agar | ATCC 14468 | - | MIC | 12.49 µM |
| CCCCCCCCC(O)[C@@H]1O[C@H]([C@H](O)CO)C(O)C1O | absorbance | mc2155 | - | MIC | 0.86 µM |
| O=C(O)c1c2n(c3cc(N4CCC(n5c(=O)[nH]c6cc(Cl)ccc65)CC4)c(F)cc3c1=O)CS2 | agar | ATCC 14468 MC2 | - | MIC | 49.91 µM |
| CCCCCCCCCCC(CCCCCCCCCC)NC(=O)NC(CCC(=O)O)(CCC(=O)O)CCC(=O)O | - | mc155 | - | MIC | 27 µg/mL |
| O=C(O)c1c2n(c3cc(N4CCC5(CC4)OCCO5)c([N+](=O)[O-])cc3c1=O)CS2 | agar | ATCC 14468 MC2 | - | MIC | 59.61 µM |
| Cc1noc(C)c1-n1sc(=O)n(-c2ccc(F)cc2)c1=O | broth dilution | mc2155 | - | MIC | 100 µg/mL |
| O=C(O)c1c2n(c3cc(N4CCC(O)(c5ccc(Cl)cc5)CC4)c(F)cc3c1=O)CS2 | agar | ATCC 14468 MC2 | - | MIC | 54.24 µM |
| COc1c(N2CCC(N3CCCCC3)CC2)c(F)cc2c(=O)c(C(=O)O)cn(C3CC3)c12 | agar | ATCC 14468 | - | MIC | 14.09 µM |
| COc1ccc(-c2nn(-c3ccc(Cl)cc3)cc2C2CC(c3ccc(-c4ccccc4)cc3)=NN2)cc1 | resazurin | - | - | MIC | 15.6 µg/mL |
| Fc1ccc(C(Cn2ccnc2)NCc2ccc(-c3ccccc3)cc2)cc1 | - | CIP 103599 | - | MIC | 16 µg/mL |
| Cc1ccc(-c2nn(-c3ccc(Cl)cc3)cc2C2CC(c3ccc(-c4ccccc4)cc3)=NN2)cc1 | resazurin | - | - | MIC | 500 µg/mL |
| CCCCCCCCCCCCCCCC#CC(=O)OCCO | - | mc22389 | - | MIC99 | 19.3 µM |
| Cc1ccc(-c2nn(-c3ccc(Cl)cc3)cc2C2CC(c3ccc(C)o3)=NN2)cc1 | resazurin | - | - | MIC | 62.5 µg/mL |
| CCCCCCCCCCCCCCSCC#CC(=O)O | - | mc2651 | - | MIC99 | 167.5 µM |
| O=C(O)c1c2n(c3cc(N4CCN(C(c5ccccc5)c5ccc(Cl)cc5)CC4)c([N+](=O)[O-])cc3c1=O)CS2 | agar | ATCC 14468 MC2 | - | MIC | 5.56 µM |
| CC(C)c1ccc(-n2c(=O)sn(-c3ccc(SC(F)(F)F)cc3)c2=O)cc1 | broth dilution | mc2155 | - | MIC | 25 µg/mL |
| NNC(=O)c1ccncc1 | - | mc2155 | - | MIC | 5 µg/mL |
| O=C(Nc1ccc(CN2CCOCC2)cc1)c1ccc(Cl)cc1 | - | 103599 | - | MIC | >16 µg/mL |
| Clc1ccc(C(Cn2ccnc2)NC/C=C/c2ccccc2)c(Cl)c1 | - | CIP 103599 | - | MIC | >16 µg/mL |
| Clc1ccc(-n2cc(C3CC(c4ccc5c(c4)CCO5)=NN3)c(-c3ccccc3)n2)cc1 | resazurin | - | - | MIC | 15.6 µg/mL |
| C=C1C2CCC(CO)[C@@]23CC[C@H](C3)C1(C)C | agar diffusion | CSC101 | Ciprofloxacin-resistant | MIC | 12.5 µg/mL |
| O=C(/C=C/c1ccccc1)Nc1cccc(Cn2ccnc2)c1 | - | 103599 | - | MIC | >16 µg/mL |
| c1ccc(CSc2nnc3c4ccccc4c4ccccc4c3n2)cc1 | - | mc2155 | - | MIC99 | 150 µg/mL |
| Clc1ccc(C(Cn2ccnc2)NCc2cccc3ccccc23)cc1 | - | CIP 103599 | - | MIC | >16 µg/mL |
| COc1ccc(CC2C3=C(CCCC3)CCN2c2cc3c(cc2F)c(=O)c(C(=O)O)c2n3CS2)cc1 | agar | ATCC 14468 MC2 | - | MIC | 98.69 µM |
| O=C(Nc1ccc(CN2CCOCC2)cc1)c1ccc(-c2ccccc2)cc1 | - | 103599 | - | MIC | >16 µg/mL |
| O=C1COc2ccc(N3C[C@H]4CN(CCn5c(=O)ccc6ccc(Oc7cccnc7)nc65)C[C@@H]4OC3=O)nc2N1 | broth dilution | ATCC 19420 | - | MIC | ≤1 µg/mL |
| CCCCCCCCCCCCN1c2ccccc2Sc2ccccc21 | broth dilution | mc2155 | - | MIC | >64 µg/mL |
| Cc1nc(-c2ccccc2)sc1-c1cn2cc(Br)ccc2n1 | broth dilution / absorbance | mc2155 | - | MIC | 25 µg/mL |
| c1ccc(-c2ccc(CNC(Cn3ccnc3)c3ccccc3)cc2)cc1 | - | CIP 103599 | - | MIC | 16 µg/mL |
| COc1ccc2c3conc3c(=O)n(CCCN3C[C@@H]4CN(c5ccc6c(n5)NC(=O)CO6)C(=O)O[C@H]4C3)c2c1 | broth dilution | ATCC 19420 | - | MIC | ≤1 µg/mL |
| CN(C)C(=O)CC(CSc1ccccc1)Nc1c(C(=O)N/N=C/c2ccc(Br)s2)cnc2cc(F)ccc12 | resazurin | ATCC 19420 | - | MIC | >100 µg/mL |
| O=C(Nc1ccccc1Cn1ccnc1)c1ccc(Cl)cc1 | - | 103599 | - | MIC | >16 µg/mL |
| CCO | absorbance | mc2155 | - | MIC | 0.86 µM |
| O=C(/C=C/c1ccccc1)Nc1ccc(Cn2ccnc2)cc1 | - | 103599 | - | MIC | >16 µg/mL |
| CCCCCN(CCCCC)CCNC(C)C | - | ATCC 607 | - | EC50 | <250 µg/mL |
| CCCCCCCCC(CCCCCCCC)NC(=O)NC(CCC(=O)O)(CCC(=O)O)CCC(=O)O | - | mc155 | - | MIC | 144 µg/mL |

Repeating the first 4 entries:

O=C(Nc1ccccc1CN1CCOCC1)c1ccc(Cl)cc1 ; strain or isolate: 103599 ; read-out: MIC ; value: >16 µg/mL
CC1CN(c2cc3c(cc2[N+](=O)[O-])c(=O)c(C(=O)O)c2n3CS2)CC(C)O1 ; method: agar ; strain or isolate: ATCC 14468 MC2 ; read-out: MIC ; value: 63.87 µM
Cc1ccc(-c2nc(C)c(-c3cn4cc(Cl)ccc4n3)s2)cc1 ; method: broth dilution / absorbance ; strain or isolate: mc2155 ; read-out: MIC ; value: >50 µg/mL
C[C@H](NCCN[C@H](C)c1ccccc1)c1ccccc1 ; strain or isolate: ATCC 607 ; read-out: EC50 ; value: <250 µg/mL